Test results from publication PMC11604724 (MedComm, 2024).

How the values were obtained:
[1] = molecular target: spike of authentic SARS‐CoV‐2 (WT) on infected, fixed Vero E6 cells (SARS-CoV-2 WT (patient isolate), UniProt P0DTC2); experiment: ELISA; conditions: one partner purified
[2] = molecular target: Horseradish peroxidase (HRP)‐labeled NTD protein (SARS-CoV-2, WT assumed, UniProt P0DTC2, horseradish peroxidase (HRP) label); experiment: ELISA; conditions: both partners purified

B1: antibody DH1052 (antibody, V domains shown)
VH: EVQLVQSGAEVKKPGATVKISCKVSGYTFTDYYMHWVQQAPGKGLEWMGLVDPEDGETIYAEKFQGRVTITADTSTDTAYMELSSLRSEDTAVYYCATSSGPSRLCGGGSCYHSFDYWGQGTLVTVSS
VL: not shown
binding result [1]: binds

B2: mAb 3711 (antibody, V domains shown)
VH: EVQLVESGGGLVKPGRSLRLSCAASGFTFSDYYMSWIRQAPGKGLEWVSYISSSGSTIYYADSVRGRFTISRDNAKNSLYLQMNTLRAEDTAVYYCARGGWELRSLAGGYYGMDVWGQGTTVTVSS
VL: DIVMTQTPFTLSASVGDRVTITCRASQGIRNDLGWYQQKPGKAPKCLIYAASSLLSGVPSRFSGSGSGTEFTLTISSLQPEDFATYYCLQHNSYPWTFGQGTKLEIK
binding result [1]: binds

B3: antibody 5–7 (antibody, V domains shown)
VH: QVQLVQSGAEVKKPGASVKVSCKASGYTFTSYYMHWVRQAPGQGLEWMGVINPSGGSTSYAEKFRGRVTMTRDTSTSTVYMELSSLRSEDTAVYYCARDREPHSDSSGYWDSLKYYYYYALDVWGQGTTVTVSS
VL: AIQLTQSPSSLSASVGDRVTITCRASQGISSYLAWYQQKPGKAPELLIYAASTLQSGVPSRFSGSGSGTDFTLTISSLQPEDFATYYCQQLNTYPFTFGPGTKVDIK
binding result [1]: binds

B4: antibody P008_056 (antibody, V domains shown)
VH: EVQLVESGGGLVKPGGSLRLSCAASGFSFSSYSMNWVRQAPGKGLEWVSSISSNSNYIYYADSMKGRFTISRDNAKNSLYLQMNSLRAEDTAVYYCASNRSPYDSSNYYFDYWGQGTRVTISS
VL: AIRMTQSPSSLSASVGDRVTITCQASQDISNYLNWYQQKPGKAPKLLIYDASNLETGVPSRFSGSGSGTDFTFTISSLQPEDIATYYCQHHDSLPLTFGGGTKVEIK
binding result [1]: binds | binding result [2]: binds
